Measured values taken from patent publication US12049474B2, “Nucleoside prodrugs and uses related thereto” (Emory University, priority 2019, dated 2024).
Where “and” joins values, the source holds several entries; their conditions need not be identical. Equal values may be shown once. Where a name gives a salt, the structure may show the parent alone.

test system: HIV; format: cell-based; settings: CC50/IC50

Q: With N.[2H]C([2H])([2H])C([2H])([2H])CCCCCCCCCCCCCOP(=O)(O)CO[C@H](C)Cn1cnc2c(N)ncnc21 [EJM-8-030, Ammonium pentadecyl-14,14,15,15,15-d5 (R)-(((1-(6-amino-9H-purin-9-yl)propan-2-yl)oxy)methyl)phosphonate] as the molecule, how does the “Therapeutic Index” value read?
A: >22

Q: How did the “Therapeutic Index” value turn out when C[C@H](Cn1cnc2c(N)ncnc21)OCP(=O)(O)OCCCCCCCCCCCCCCCCCCCC(F)(F)F.N [NP-PD-105, ammonium [(1R)-2-(6-aminopurin-9-yl)-1-methyl-ethoxy]methyl-(20,20,20-trifluoroicosoxy)phosphinate] was run?
A: 603

Q: For C[C@H](Cn1cnc2c(N)ncnc21)OCP(=O)(O)OCCCCCCCCCCCCCCCCCC#CC(F)(F)F.N [NP-PD-102, Ammonium [(1R)-2-(6-aminopurin-9-yl)-1-methyl-ethoxy]methyl-(20,20,20-trifluoroicos-18-ynoxy)phosphinate], which “Therapeutic Index” value is on record?
A: 423

Q: How did the “Therapeutic Index” value turn out when CCCCCCCCCCCCCCCCCCOP(=O)(O)CO[C@H](C)Cn1cnc2c(N)ncnc21.N [MD-1-105, Ammonium Octadecyl (R)-(((1-(6-amino-9H-purin-9-yl)propan-2-yl)oxy)methyl)phosphonate] was run?
A: 895

Q: How did the “Therapeutic Index” value turn out when C[C@H](Cn1cnc2c(N)ncnc21)OCP(=O)(O)OCCCCCCCCCCCCCCCCCC[Si](C)(C)C.N [NP-PD-051, Ammonium [(1R)-2-(6-aminopurin-9-yl)-1-methyl-ethoxy]methyl-(18-trimethylsilyloctadecoxy)phosphinate] was run?
A: 282

Q: With COC(=O)CCCCCCCCCCCCCCCSCCCOP(=O)(O)CO[C@H](C)Cn1cnc2c(N)ncnc21.N [MD-1-124, Ammonium 3-((16-methoxy-16-oxohexadecyl)thio)propyl (R)-(((1-(6-amino-9H-purin-9-yl)propan-2-yl)oxy)methyl)phosphonate] as the molecule, how does the “Therapeutic Index” value read?
A: >70

Q: CCCCCCCCCCCCCCCOP(=O)(O)CO[C@H](C)Cn1cnc2c(N)ncnc21.N [MD-1-106, Ammonium Pentadecyl (R)-(((1-(6-amino-9H-purin-9-yl)propan-2-yl)oxy)methyl)phosphonate] was tested. Which “Therapeutic Index” value did it give?
A: >49

Q: Which “Therapeutic Index” value does the source give for C[C@H](Cn1cnc2c(N)ncnc21)OCP(=O)(O)OCCCCCCCCCCCCCCCCC#C[Si](C)(C)C.N [NP-PD-042, Ammonium [(1R)-2-(6-aminopurin-9-yl)-1-methyl-ethoxy]methyl-(18-trimethylsilyloctadec-17-ynoxy)phosphinate] here?
A: 792

Q: Which “Therapeutic Index” value does the source give for CC(C)OC(=O)[C@H](C)N[P@](=O)(CO[C@H](C)Cn1cnc2c(N)ncnc21)Oc1ccccc1 [TAF, tenofovir alafenamide fumarate, reference compound] here?
A: >50,000 and >100,000

Q: For C[C@H](Cn1cnc2c(N)ncnc21)OCP(=O)(O)OCCCSCCCCCCCCCCCCc1ccccc1.N [MD-1-184, Ammonium 3-((12-phenyldodecyl)thio)propyl (R)-(((1-(6-amino-9H-purin-9-yl)propan-2-yl)oxy)methyl)phosphonate], which “Therapeutic Index” value is on record?
A: >12,500

Q: How did the “Therapeutic Index” value turn out when C[C@H](Cn1cnc2c(N)ncnc21)OCP(=O)(O)OCCCSCCCCCCCCCCCOc1ccccc1.N [MD-1-223, Ammonium 3-((11-phenoxyundecyl)thio)propyl (R)-(((1-(6-amino-9H-purin-9-yl)propan-2-yl)oxy)methyl)phosphonate] was run?
A: >11,111

Q: How did the “Therapeutic Index” value turn out when C[C@H](Cn1cnc2c(N)ncnc21)OCP(=O)(O)OCCCSCCCCCCCCCCCCC#C[Si](C)(C)C.N [MD-1-187, Ammonium 3-((14-(trimethylsilyl)tetradec-13-yn-1-yl)thio)propyl (R)-(((1-(6-amino-9H-purin-9-yl)propan-2-yl)oxy)methyl)phosphonate] was run?
A: >4,167

Q: For CCCCCCCCCCCCCCOCCCCCOP(=O)(O)COC(C)Cn1cnc2c(N)ncnc21.N (racemic) [NP-PD-154, Ammonium [rac-(1R)-2-(6-aminopurin-9-yl)-1-methyl-ethoxy]methyl-(5-tetradecoxypentoxy)phosphinate], which “Therapeutic Index” value is on record?
A: >1,923

Q: How did the “Therapeutic Index” value turn out when CCCCCCCCCCCCCCCCCOCCOP(=O)(O)COC(C)Cn1cnc2c(N)ncnc21.N (racemic) [NP-PD-157, Ammonium 2-heptadecoxyethoxy-[[rac-(1R)-2-(6-aminopurin-9-yl)-1-methyl-ethoxy]methyl]phosphinate] was run?
A: 27,840

Q: How did the “Therapeutic Index” value turn out when CCCCCCCCCCCCCCCOCCCCOP(=O)(O)COC(C)Cn1cnc2c(N)ncnc21.N (racemic) [NP-PD-150, Ammonium 4-pentadecoxybutoxy-[[rac-(1R)-2-(6-aminopurin-9-yl)-1-methyl-ethoxy]methyl]phosphinate] was run?
A: >3,333

Q: C#CCCCCCCCCCCCCCOP(=O)(O)CO[C@H](C)Cn1cnc2c(N)ncnc21.N [EJM-8-006, Ammonium pentadec-14-yn-1-yl (R)-(((1-(6-amino-9H-purin-9-yl)propan-2-yl)oxy)methyl)phosphonate] was tested. Which “Therapeutic Index” value did it give?
A: >3

Q: For C[C@H](Cn1cnc2c(N)ncnc21)OCP(=O)(O)OCCCSCCCCCCCCCCC#Cc1ccccc1.N [MD-1-183, Ammonium 3-((12-phenyldodec-11-yn-1-yl)thio)propyl (R)-(((1-(6-amino-9H-purin-9-yl)propan-2-yl)oxy)methyl)phosphonate], which “Therapeutic Index” value is on record?
A: >12,500

Q: C#CCCCCCCCCCCCCCCCCCCOP(=O)(O)CO[C@H](C)Cn1cnc2c(N)ncnc21.N [Compound B1-1-065, Ammonium icos-19-yn-1-yl (R)-(((1-(6-amino-9H-purin-9-yl)propan-2-yl)oxy)methyl)phosphonate] was tested. Which “Therapeutic Index” value did it give?
A: 84

Q: How did the “Therapeutic Index” value turn out when N.[2H]C([2H])([2H])CCCCCCCCCCCCCCCOP(=O)(O)CO[C@H](C)Cn1cnc2c(N)ncnc21 [EJM-8-036, Ammonium hexadecyl-16,16,16-d3 (R)-(((1-(6-amino-9H-purin-9-yl)propan-2-yl)oxy)methyl)phosphonate] was run?
A: 44

Q: With C[C@H](Cn1cnc2c(N)ncnc21)OCP(=O)(O)OCCCOCCCCCCCCCCCCCC#CC(F)(F)F.N [NP-PD-149, Ammonium [(1R)-2-(6-aminopurin-9-yl)-1-methyl-ethoxy]methyl-[3-(16,16,16-trifluorohexadec-14-ynoxy)propoxy]phosphinate] as the molecule, how does the “Therapeutic Index” value read?
A: >4,348

Q: For C#CCCCCCCCCCCCCCCCCSCCCOP(=O)(O)CO[C@H](C)Cn1cnc2c(N)ncnc21.N [BI-1-057, Ammonium 3-(octadec-17-yn-1-ylthio)propyl (R)-(((1-(6-amino-9H-purin-9-yl)propan-2-yl)oxy)methyl)phosphonate], which “Therapeutic Index” value is on record?
A: 949

Q: Which “Therapeutic Index” value does the source give for C[C@H](Cn1cnc2c(N)ncnc21)OCP(=O)(O)OCCCSCCCCCCCCCCCSc1ccccc1.N [MD-1-119, Ammonium 3-((11-(phenylthio)undecyl)thio)propyl (R)-(((1-(6-amino-9H-purin-9-yl)propan-2-yl)oxy)methyl)phosphonate] here?
A: >2,000

Q: For C[C@H](Cn1cnc2c(N)ncnc21)OCP(=O)(O)OCCCOCCCCCCCCCCCCCCCC(F)(F)F.N [NP-PD-158, Ammonium [(1R)-2-(6-aminopurin-9-yl)-1-methyl-ethoxy]methyl-[3-(16,16,16-trifluorohexadecoxy)propoxy]phosphinate], which “Therapeutic Index” value is on record?
A: >4,348

Q: Which “Therapeutic Index” value does the source give for C#CCCCCCCCCCCCCCCOCCCOP(=O)(O)CO[C@H](C)Cn1cnc2c(N)ncnc21.N [MD-5-72, Ammonium 3-(hexadec-15-yn-1-yloxy)propyl (R)-(((1-(6-amino-9H-purin-9-yl)propan-2-yl)oxy)methyl)phosphonate] here?
A: >758

Q: With C#CCCCCCCCCCCCCCCCCOP(=O)(O)CO[C@H](C)Cn1cnc2c(N)ncnc21.N [Compound B1-1-024, Ammonium octadec-17-yn-1-yl ((((R)-1-(6-amino-9H-purin-9-yl)propan-2-yl)oxy)methyl)phosphonate] as the molecule, how does the “Therapeutic Index” value read?
A: >49
